Tested on: HP influenza
Parameters: species or system mice
Conditions: mouse, in vivo

SMILES: NC(=O)c1ncn([C@@H]2O[C@H](CO)[C@@H](O)[C@H]2O)c1N [AICAR]
- mortality to lethal influenza challenge: reduced mortality
- survival after influenza infection: increased survival

— patent publication US20120022113A1, “METHODS FOR S[…] T[…] ACCUMULATION AND PREVENTING HYPERCYTOKINEMIA” (priority 2009, published 2012)
